Where a sequence shows no end group, the ends are not given.

The nature of this series: general procedure: Fmoc solid-phase peptide synthesis; Rink amide resin (150 mg, 0.46 meq/g); DCC/6-Cl-HOBt. The following applies: whole synthesis, scale of the general procedure 150 mg resin.
In the case of (FKARRWQWRMKKLGA)2K-Ahx-C, the isolated yield is recorded as 18%. In turn, CRRWQWRMKKLGA registered an isolated yield of 25%. Still for that read-out and setting: the value for FKARRWQWRMKKLGA was 20%. The substance FKCRRWQWR returned an isolated yield of 11%. FKCRRWQWRM: the isolated yield came out at 7%.

FKCRRWQWRMK: the isolated yield is 13%. FKCRRWQWRMKK returned an isolated yield of 5%. With FKCRRWQWRMKKL, the crude yield was 60% and the isolated yield is given as 5%.

As for FKCRRWQWRMKKLG, the isolated yield is 12%. Same read-out and setting: the value for FKCRRWQWRMKKLGA was 16%; that for KCRRWQWRMKKLGA was 10%; that for RRWQWRMKKLGA was 9%. As to RWQWRWQWR, the isolated yield is listed as 30%.

Values taken from publication PMC6152618 (Molecules : A Journal of Synthetic Chemistry and Natural …, 2017).
